{"sequences": {"note": "Sequences of proteins named here, by UniProt entry; tags and fusion partners are left off. Residues count along the entry.", "UniProt P02751, 32-2477": "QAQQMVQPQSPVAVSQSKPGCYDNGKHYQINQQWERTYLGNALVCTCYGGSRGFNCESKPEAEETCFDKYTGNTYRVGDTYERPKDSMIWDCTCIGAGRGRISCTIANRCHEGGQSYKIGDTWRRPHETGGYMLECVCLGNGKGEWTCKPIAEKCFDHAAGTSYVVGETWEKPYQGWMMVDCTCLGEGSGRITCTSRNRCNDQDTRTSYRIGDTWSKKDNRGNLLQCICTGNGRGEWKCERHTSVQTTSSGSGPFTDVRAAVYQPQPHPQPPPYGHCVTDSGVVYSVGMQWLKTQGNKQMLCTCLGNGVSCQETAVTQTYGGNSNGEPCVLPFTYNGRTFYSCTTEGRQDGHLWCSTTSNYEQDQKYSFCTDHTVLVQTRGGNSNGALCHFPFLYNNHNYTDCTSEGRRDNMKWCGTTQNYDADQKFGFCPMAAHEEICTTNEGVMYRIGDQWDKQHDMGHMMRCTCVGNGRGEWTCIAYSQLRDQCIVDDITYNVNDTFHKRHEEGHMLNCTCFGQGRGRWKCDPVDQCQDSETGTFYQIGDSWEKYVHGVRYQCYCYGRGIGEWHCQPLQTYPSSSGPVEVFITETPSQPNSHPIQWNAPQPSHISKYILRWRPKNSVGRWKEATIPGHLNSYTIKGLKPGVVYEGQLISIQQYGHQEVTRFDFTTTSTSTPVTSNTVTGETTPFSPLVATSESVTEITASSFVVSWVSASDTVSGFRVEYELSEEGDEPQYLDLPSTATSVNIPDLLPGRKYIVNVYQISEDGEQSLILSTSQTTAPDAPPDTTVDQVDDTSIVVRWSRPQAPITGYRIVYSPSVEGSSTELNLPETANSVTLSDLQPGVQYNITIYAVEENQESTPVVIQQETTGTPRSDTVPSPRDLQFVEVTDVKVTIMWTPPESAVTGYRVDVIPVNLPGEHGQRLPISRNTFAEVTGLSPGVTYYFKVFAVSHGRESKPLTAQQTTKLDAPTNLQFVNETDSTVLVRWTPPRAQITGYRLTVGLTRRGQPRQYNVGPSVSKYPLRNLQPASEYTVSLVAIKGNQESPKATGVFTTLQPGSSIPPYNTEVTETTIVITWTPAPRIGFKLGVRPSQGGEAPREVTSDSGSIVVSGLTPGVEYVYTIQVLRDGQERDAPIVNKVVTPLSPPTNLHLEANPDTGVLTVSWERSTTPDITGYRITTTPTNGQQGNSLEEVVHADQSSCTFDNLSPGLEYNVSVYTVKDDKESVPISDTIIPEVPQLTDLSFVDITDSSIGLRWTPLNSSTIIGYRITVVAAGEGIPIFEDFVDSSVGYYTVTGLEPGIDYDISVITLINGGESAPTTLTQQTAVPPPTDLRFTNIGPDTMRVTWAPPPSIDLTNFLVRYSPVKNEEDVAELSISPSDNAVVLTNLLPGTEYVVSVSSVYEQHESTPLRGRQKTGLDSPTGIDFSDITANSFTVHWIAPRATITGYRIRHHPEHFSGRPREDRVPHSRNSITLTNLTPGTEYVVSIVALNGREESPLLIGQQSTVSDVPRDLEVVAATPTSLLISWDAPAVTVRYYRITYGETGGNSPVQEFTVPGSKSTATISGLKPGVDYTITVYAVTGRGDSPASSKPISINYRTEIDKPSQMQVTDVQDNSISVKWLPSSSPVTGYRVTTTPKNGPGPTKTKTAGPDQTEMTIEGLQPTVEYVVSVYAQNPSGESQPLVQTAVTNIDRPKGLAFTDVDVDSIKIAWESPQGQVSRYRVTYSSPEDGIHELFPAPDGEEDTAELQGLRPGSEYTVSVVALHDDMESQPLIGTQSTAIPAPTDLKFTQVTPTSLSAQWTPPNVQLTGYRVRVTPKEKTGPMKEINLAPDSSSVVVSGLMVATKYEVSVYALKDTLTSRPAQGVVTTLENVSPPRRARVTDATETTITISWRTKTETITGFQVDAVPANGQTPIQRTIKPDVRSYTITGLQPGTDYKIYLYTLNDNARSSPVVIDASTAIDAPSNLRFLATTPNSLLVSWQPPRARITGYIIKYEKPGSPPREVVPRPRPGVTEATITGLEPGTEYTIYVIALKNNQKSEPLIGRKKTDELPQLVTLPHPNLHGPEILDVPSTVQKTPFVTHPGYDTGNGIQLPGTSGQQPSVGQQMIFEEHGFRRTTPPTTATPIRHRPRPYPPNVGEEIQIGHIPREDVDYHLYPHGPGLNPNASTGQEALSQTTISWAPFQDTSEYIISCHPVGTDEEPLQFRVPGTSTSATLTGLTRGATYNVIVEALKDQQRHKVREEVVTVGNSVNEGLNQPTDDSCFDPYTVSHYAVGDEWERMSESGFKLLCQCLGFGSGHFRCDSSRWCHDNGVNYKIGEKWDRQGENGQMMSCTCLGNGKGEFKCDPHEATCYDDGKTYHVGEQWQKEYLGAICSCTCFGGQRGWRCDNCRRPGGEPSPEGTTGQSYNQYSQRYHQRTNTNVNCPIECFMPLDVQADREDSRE"}, "source": "paper PMC6488583", "biological_target": "full-length human fibronectin (UniProt P02751)", "experiment": "ELISA", "details": "parent: est. 0.29; read off a plot", "data": [{"substance": "UpaB α-domain (α^UpaB), residues 38–500, from UPEC CFT073 N110A; K111A; N112A; D142A; N171A; D206A; D208A; N212A; N241A; N274A; N276A; N303A; N305A; K325A; D329A; D331A; D349A", "values": [{"measurement": "response (Absorbance at 405 nm)", "result": 0.2}]}, {"substance": "UpaB α-domain (α^UpaB), residues 38–500, from UPEC CFT073 V151A; I221A; V249A; A252G; A253G; Y285A; Y312A; V339A", "values": [{"measurement": "response (Absorbance at 405 nm)", "result": 0.26}]}]}
